Test [1] concerns the target SARS-CoV-2 spike glycoprotein (SARS-CoV-2, Ancestral strain, UniProt P0DTC2).
The target of test [2] is T1, SARS-CoV-2 S receptor binding domain, Ancestral (SARS-CoV-2, Ancestral strain, UniProt P0DTC2, biotin (biotinylated RBD, for SPR)).
T1 construct: source: expressed and purified as described [52]
Briefly: ELISA. The note with it: both partners purified. For orientation: An ELISA detects its analyte on a solid surface through an enzyme-linked reagent.

The record followed here is article PMC10702856 (Antibody Therapeutics, 2023).

B1: ADAH14 (VHH)
VHH: QVQLQESGGGLVQAGGSLRLSCAASGSYFFHALMGWFRQAPVKEREFVASITAVPGATYYRRCTDSVKGRFTISRDNAKNTVYLQMNSLKPEDTAVYYCALATHSNRHTPITYWGQGTQVTVSS
B1: the binding result in test [1] is on record as “binds”.

B2: ADAH11 nanobody (VHH)
VHH: QVQLQESGGGLVQAGGSLRLSCAASGDSYTAYVMGWFRQAPGKEREFVASITPTNDNFSYYADSVKGRFTISRDNAKNTVYLQMNSLKPEDTAVYYCALATHSNRPTPITYWGQGTQVTVSS
notes: also called monomeric ADAH11; source: E. coli TG1, purified (Ni-NTA, SEC)
As to B2, in test [2], the binding result was “binds”.

B3: ADAH15 (VHH)
VHH: QVQLQESGGGLVQAGGSLRLSCAASGTTYLAANMGWFRQAPGKEREFVAAITFFHNPTVYYADSVKGRFTISRDNAKNTVYLQMNSLKPEDTAVYYCAATVLVRDRIHFSHSIGIRYWGQGTQVTVSS
For B3, in test [1], the binding result is given as “binds”.
